PSTVd stem 15 mutant pool in Nicotiana benthamiana

Data from the supplement of Wu et al. 2024, doi:10.1371/journal.ppat.1012142.

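Three N. benthamiana plants were inoculated with the whole mutant pool. Progeny were sequenced from the inoculated region (day 5), the margin of the inoculated leaf (day 10) and systemic leaves (day 12).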

The pool varies stem 15 of the PSTVd intermediate strain in the pattern CUGGAGCGAUNGNNUNNG; wild type is CUGGAGCGAUCGCUUCGG (upper and lower strand joined, each 5' to 3', the first 9 letters being the upper strand).

Numbers give reads per thousand; 0 = not seen among the reads, higher = more abundant.
Each site shows the three plants.
"Pool" is the share in the plasmid pool used as inoculum, on the same scale.
The inoculated region was read from the minus strand, the other sites from the plus strand.
With 36,693-63,082 reads a sample, very low values are single reads.
Wild type was 10.2 per thousand in the pool and the most common sequence in every sample (inoculated region 285, 367, 312; leaf margin 785, 865, 782; systemic leaves 854, 898, 915).
The authors trace changes outside the varied positions to PCR and sequencing errors or to mutation in the plant; presence does not show that a variant is infectious alone.

| # | sequence | pool | inoculated region | leaf margin | systemic leaves |
|---|---|---|---|---|---|
| 1 | AUGGAGCGAUAGGGUGGG | 0.0162 | 0 0 0 | 0 0 0 | 0 0 0 |
| 2 | AUGGAGCGAUUGUUUUUG | 0.0162 | 0.0391 0.0209 0 | 0.0207 0 0.0159 | 0 0.0222 0 |
| 3 | CUGGAGCGAUAGAUUGCG | 0.873 | 0.274 0.230 0.298 | 0.0207 0.0545 0.0317 | 0 0 0 |
| 4 | CUGGAGCGAUAGAUUGGG | 0.905 | 0.294 0.251 0.186 | 0.0207 0.0545 0 | 0 0 0 |
| 5 | CUGGAGCGAUAGCCUGGG | 0.937 | 0.411 0.398 0.354 | 0.0620 0 0.0159 | 0 0 0 |
| 6 | CUGGAGCGAUAGCUUGAG | 0.921 | 0.372 0.272 0.279 | 0.0414 0.0818 0.0317 | 0 0 0 |
| 7 | CUGGAGCGAUAGCUUGCG | 0.663 | 0.176 0.293 0.354 | 0.0620 0.0273 0.0317 | 0 0 0 |
| 8 | CUGGAGCGAUAGCUUUAG | 0.840 | 0.196 0.377 0.261 | 0.0827 0 0.0317 | 0 0 0 |
| 9 | CUGGAGCGAUAGGCUGUG | 0.970 | 0.137 0.272 0.372 | 0.0414 0 0.0317 | 0 0 0 |
| 10 | CUGGAGCGAUAGGGUACG | 0.792 | 0.274 0.251 0.298 | 0.0827 0 0.0317 | 0 0 0 |
| 11 | CUGGAGCGAUAGGGUAGG | 0.840 | 0.215 0.230 0.335 | 0.0620 0.0545 0.0476 | 0 0 0 |
| 12 | CUGGAGCGAUAGGUUUAG | 0.630 | 0.274 0.377 0.335 | 0 0.0273 0 | 0 0 0 |
| 13 | CUGGAGCGAUAGUCUCCG | 1.97 | 0.763 1.86 0.968 | 0.186 0 0.0476 | 0 0 0 |
| 14 | CUGGAGCGAUAGUUUCAG | 0.921 | 0.430 0.293 0.428 | 0.124 0 0.0317 | 0 0 0 |
| 15 | CUGGAGCGAUCGAAUGAG | 1.08 | 0.235 0.419 0.372 | 0.0414 0 0.0159 | 0 0 0 |
| 16 | CUGGAGCGAUCGACUUCG | 0.711 | 0.274 0.209 0.633 | 0.0414 0.0273 0.0317 | 1.74 0 0 |
| 17 | CUGGAGCGAUCGAUUUUG | 1.37 | 0.607 0.503 0.633 | 0.145 0 0.0317 | 0 0 0.0199 |
| 18 | CUGGAGCGAUCGCUUCGC | 0.0323 | 0.0587 0.0419 0.0931 | 0 0 0 | 0.0396 0 0 |
| 19 | CUGGAGCGAUCGCUUCGU | 0.129 | 0.411 0.230 0.391 | 0.0207 0.409 0.587 | 0.495 0.399 0.140 |
| 20 | CUGGAGCGAUCGCUUUUG | 0.921 | 0.294 0.168 0.298 | 0.103 0.0273 0.0159 | 0 0 0 |
| 21 | CUGGAGCGAUCGGCUUGG | 1.00 | 0.567 1.61 0.503 | 0.0620 0 0 | 0 0 0 |
| 22 | CUGGAGCGAUCGGGUCAG | 1.02 | 0.215 0.272 0.279 | 0.0207 0.0818 0.0159 | 0 0 0 |
| 23 | CUGGAGCGAUCGGUUACG | 0.954 | 0.235 0.272 0.354 | 0.0207 0.0545 0.0159 | 0 0 0 |
| 24 | CUGGAGCGAUCGUCUGUG | 0.970 | 0.254 0.230 0.298 | 0.0620 0 0.0317 | 0 0 0 |
| 25 | CUGGAGCGAUCGUGUCGG | 1.02 | 0.294 0.272 0.465 | 0 0 0 | 0 0 0 |
| 26 | CUGGAGCGAUGGAAUGAG | 1.33 | 0.509 0.754 0.614 | 0.0827 0.0273 0.0476 | 0 0 0 |
| 27 | CUGGAGCGAUGGAUUAUG | 1.34 | 0.489 0.398 0.484 | 0.103 0.0545 0.0476 | 0 0 0 |
| 28 | CUGGAGCGAUGGCAUCGG | 1.15 | 0.294 0.168 0.391 | 0 0.0273 0 | 0 0 0 |
| 29 | CUGGAGCGAUGGGGUGGG | 0.889 | 0.254 0.251 0.298 | 0.0207 0.0273 0.0159 | 0 0 0 |
| 30 | CUGGAGCGAUGGGGUUCG | 0.986 | 0.313 0.377 0.279 | 0.0414 0 0.0317 | 0 0 0 |
| 31 | CUGGAGCGAUGGGUUUUG | 1.65 | 0.665 0.921 1.17 | 0.103 0.0818 0.0317 | 0 0 0 |
| 32 | CUGGAGCGAUGGUCUAUG | 0.986 | 0.235 0.335 0.316 | 0.0620 0.0273 0.0317 | 0 0 0 |
| 33 | CUGGAGCGAUGGUCUGAG | 0.873 | 3.82 1.82 1.43 | 0.103 0 0.840 | 0 0 0 |
| 34 | CUGGAGCGAUUGACUGAG | 0.905 | 2.17 1.21 1.45 | 0.806 0.0545 0.951 | 0 0 0 |
| 35 | CUGGAGCGAUUGAGUAAG | 0.970 | 0.157 0.356 0.223 | 0 0.0273 0 | 0 0 0 |
| 36 | CUGGAGCGAUUGAUUCCG | 0.840 | 0.157 0.251 0.335 | 0.0207 0.0273 0.0793 | 0 0 0 |
| 37 | CUGGAGCGAUUGCUUCGG | 1.15 | 33.1 16.4 49.7 | 11.1 20.5 12.9 | 19.7 11.4 9.11 |
| 38 | CUGGAGCGAUUGGAUCCG | 0.760 | 0.294 0.272 0.205 | 0.0207 0.0273 0.0159 | 0 0 0 |
| 39 | CUGGAGCGAUUGGCUUCG | 1.03 | 2.15 1.44 1.64 | 0.476 0.0273 1.01 | 0.891 0.709 0 |
| 40 | CUGGAGCGAUUGGGUAAG | 0.808 | 0.294 0.209 0.335 | 0.0207 0.0545 0.0317 | 0 0 0 |
| 41 | CUGGAGCGAUUGUUUGUG | 1.00 | 0.411 1.21 0.465 | 0.0414 0.0545 0 | 0 0 0.0199 |
| 42 | CUGGGGCGAUCGAGUGUG | 0.0162 | 0 0 0 | 0 0 0 | 0 0 0 |
| 43 | CUUGAGCGAUAGCGUGGG | 0.0162 | 0 0 0 | 0 0 0 | 0 0 0 |

The opening 2 entries, copied out:

{"sequence": "AUGGAGCGAUAGGGUGGG", "pool": "0.0162", "inoculated region": "0 0 0", "leaf margin": "0 0 0", "systemic leaves": "0 0 0"}
{"sequence": "AUGGAGCGAUUGUUUUUG", "pool": "0.0162", "inoculated region": "0.0391 0.0209 0", "leaf margin": "0.0207 0 0.0159", "systemic leaves": "0 0.0222 0"}